## Share of PSTVd loop 6 variants by leaf site

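A pool of all variants was put on leaves of three Nicotiana benthamiana plants. Samples came from the inoculated region at 5 days, the leaf margin at 10 and upper systemic leaves at 12.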

The pool varies loop 6 of the PSTVd intermediate strain in the pattern UNNNCGNNNG; wild type is UGACCGCGAG (upper and lower strand joined, each 5' to 3', the first 5 letters being the upper strand, closing pairs included).

Values are reads per thousand in the sample; higher means more abundant, 0 means not found.
Each value is the mean of three plants.
"Pool" is the share in the plasmid pool used as inoculum, on the same scale.
The inoculated region was read from the minus strand, the other sites from the plus strand.
IR is the inoculated region, LM the leaf margin, Sys the systemic leaves.
Samples held 36,220 to 57,551 reads, so the smallest values rest on one or two reads.
For reference, wild type rose from 20.7 per thousand in the pool to 195, 198, 203 (inoculated region), 629, 591, 734 (leaf margin) and 942, 870, 868 (systemic leaves).
Sequences that differ at fixed positions probably stem from PCR or sequencing errors, and defective variants can be carried along by functional ones.

| sequence | pool | IR | LM | Sys |
|---|---|---|---|---|
| CGACCGACCG | 0.0131 | 0.0304 | 0.00920 | 0 |
| UAAACGAGUG | 0.157 | 0.632 | 0.00920 | 0.0202 |
| UAAACGCGUG | 0.183 | 0.585 | 0.0823 | 0.0467 |
| UAACCGCAAG | 0.105 | 3.78 | 0.768 | 0.470 |
| UAACCGCGGG | 0.275 | 0.107 | 0.00773 | 0.0202 |
| UAAGCGCACG | 0.222 | 0.0886 | 0 | 0 |
| UACGCGAUUG | 0.170 | 0.0775 | 0 | 0 |
| UAGCCGCCGG | 0.183 | 0.0771 | 0.0436 | 0 |
| UAGCCGGGUG | 0.144 | 0.102 | 0.0184 | 0 |
| UAUACGGUAG | 0.288 | 0.114 | 0.00773 | 0 |
| UAUCCGACCG | 0.196 | 0.0357 | 0 | 0 |
| UAUGCGAGAG | 0.144 | 0.0957 | 0.0247 | 0 |
| UAUGCGCACG | 0.222 | 0.0712 | 0.00773 | 0 |
| UAUGCGUUAG | 0.366 | 0.0825 | 0.00920 | 0 |
| UAUUCGAGGG | 0.235 | 0.0480 | 0.00920 | 0 |
| UCACCGGGGG | 0.131 | 0.0652 | 0.0155 | 0 |
| UCAUCGAUUG | 0.275 | 0.0780 | 0 | 0 |
| UCAUCGUUAG | 0.431 | 0.0965 | 0.0155 | 0 |
| UCCACGAGUG | 0.261 | 0.0780 | 0.00773 | 0 |
| UCCCCGUACG | 0.301 | 0.0656 | 0.0436 | 0 |
| UCCGCGCUAG | 0.131 | 0.125 | 0.0247 | 0 |
| UCCGCGGGUG | 0.235 | 0.0710 | 0.00920 | 0 |
| UCGACGUUCG | 0.235 | 0.0775 | 0.0184 | 0 |
| UCGGCGUCCG | 0.222 | 0.101 | 0.00773 | 0 |
| UCGUCGUUCG | 0.248 | 0.107 | 0.0184 | 0 |
| UCUACUGUCC | 0.0131 | 0 | 0.00920 | 0 |
| UCUCCGCCCG | 0.261 | 0.114 | 0 | 0 |
| UCUGCGCGCG | 0.314 | 0.0946 | 0.00773 | 0.00684 |
| UCUGCGGCUG | 0.183 | 0.0722 | 0 | 0 |
| UCUUCGAGUG | 0.288 | 0.161 | 0.0169 | 0 |
| UCUUCGGAAG | 0.209 | 0.0955 | 0.0169 | 0 |
| UGAACCCGAG | 0.0131 | 0.596 | 0.0592 | 0.0331 |
| UGACCGGAGG | 0.0915 | 0.143 | 0.127 | 0.0273 |
| UGACCGGCGU | 0.0131 | 0 | 0 | 0 |
| UGACCGUUCG | 0.222 | 0.244 | 0.551 | 0.214 |
| UGCGCGCCAG | 0.288 | 0.0833 | 0 | 0 |
| UGGACGAUAG | 0.314 | 0.125 | 0.0619 | 0 |
| UGGACGCCGG | 0.222 | 0.0596 | 0.00773 | 0 |
| UGGACGUGCG | 0.144 | 0.0886 | 0 | 0 |
| UGGCCGAAUG | 0.353 | 0.150 | 0 | 0 |
| UGGCCGCUGG | 0.131 | 0.187 | 0 | 0 |
| UGGCCGUCAG | 0.288 | 0.191 | 0.0155 | 0 |
| UGGGCGAGAG | 0.261 | 0.108 | 0.00773 | 0 |
| UGUACGGAGG | 0.183 | 0.106 | 0.00920 | 0 |
| UGUCCGACGG | 0.261 | 0.102 | 0.0155 | 0 |
| UGUGCGAAUG | 0.301 | 0.138 | 0.0261 | 0 |
| UGUGCUCCUG | 0.0131 | 0 | 0 | 0 |
| UUAACGACCG | 0.183 | 0.732 | 0.0851 | 0.0452 |
| UUAACGGAGA | 0.0915 | 0.465 | 0.0766 | 0.0135 |
| UUCCCGCCAG | 0.222 | 0.0657 | 0 | 0 |
| UUCUCGAGGG | 0.209 | 0.0836 | 0.00773 | 0 |
| UUGACGUGCG | 0.196 | 0.0940 | 0 | 0 |
| UUGGCGCCCG | 0.431 | 0.0721 | 0 | 0 |
| UUUACGAUUG | 0.183 | 0.107 | 0.00773 | 0 |
| UUUACGGAUG | 0.183 | 0.120 | 0.00920 | 0 |

The last 7 entries again:

- UUAACGGAGA (pool 0.0915): IR 0.465; LM 0.0766; Sys 0.0135
- UUCCCGCCAG (pool 0.222): IR 0.0657; LM 0; Sys 0
- UUCUCGAGGG (pool 0.209): IR 0.0836; LM 0.00773; Sys 0
- UUGACGUGCG (pool 0.196): IR 0.0940; LM 0; Sys 0
- UUGGCGCCCG (pool 0.431): IR 0.0721; LM 0; Sys 0
- UUUACGAUUG (pool 0.183): IR 0.107; LM 0.00773; Sys 0
- UUUACGGAUG (pool 0.183): IR 0.120; LM 0.00920; Sys 0

From the data files of Wu et al. 2024, doi:10.1371/journal.ppat.1012142.